Our source for the IC50 values is paper PMC9168620, “Genetic validation of Aspergillus fumigatus phosphoglucomutase as a viable therapeutic target in invasive aspergillosis” (The Journal of Biological Chemistry, 2022).

Sequences of proteins named here, by UniProt entry; tags and fusion partners are left off.
UniProt Q4WY53, whole entry: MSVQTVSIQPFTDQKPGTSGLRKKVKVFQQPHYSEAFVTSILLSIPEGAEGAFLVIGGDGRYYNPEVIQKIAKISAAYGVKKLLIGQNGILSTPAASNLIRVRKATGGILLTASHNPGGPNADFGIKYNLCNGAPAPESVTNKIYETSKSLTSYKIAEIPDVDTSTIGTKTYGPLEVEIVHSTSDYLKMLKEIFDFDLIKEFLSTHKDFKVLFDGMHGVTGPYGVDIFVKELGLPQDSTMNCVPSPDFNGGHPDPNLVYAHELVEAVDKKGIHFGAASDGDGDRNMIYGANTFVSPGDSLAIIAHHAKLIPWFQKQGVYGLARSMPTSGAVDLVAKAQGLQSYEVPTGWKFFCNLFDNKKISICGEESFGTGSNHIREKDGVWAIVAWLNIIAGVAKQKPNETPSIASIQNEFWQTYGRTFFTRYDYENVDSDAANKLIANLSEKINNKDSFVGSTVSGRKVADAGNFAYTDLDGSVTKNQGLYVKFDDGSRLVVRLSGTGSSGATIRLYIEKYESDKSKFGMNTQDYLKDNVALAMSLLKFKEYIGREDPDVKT
UniProt Q4WY53, whole entry C131S/C242S/C364S: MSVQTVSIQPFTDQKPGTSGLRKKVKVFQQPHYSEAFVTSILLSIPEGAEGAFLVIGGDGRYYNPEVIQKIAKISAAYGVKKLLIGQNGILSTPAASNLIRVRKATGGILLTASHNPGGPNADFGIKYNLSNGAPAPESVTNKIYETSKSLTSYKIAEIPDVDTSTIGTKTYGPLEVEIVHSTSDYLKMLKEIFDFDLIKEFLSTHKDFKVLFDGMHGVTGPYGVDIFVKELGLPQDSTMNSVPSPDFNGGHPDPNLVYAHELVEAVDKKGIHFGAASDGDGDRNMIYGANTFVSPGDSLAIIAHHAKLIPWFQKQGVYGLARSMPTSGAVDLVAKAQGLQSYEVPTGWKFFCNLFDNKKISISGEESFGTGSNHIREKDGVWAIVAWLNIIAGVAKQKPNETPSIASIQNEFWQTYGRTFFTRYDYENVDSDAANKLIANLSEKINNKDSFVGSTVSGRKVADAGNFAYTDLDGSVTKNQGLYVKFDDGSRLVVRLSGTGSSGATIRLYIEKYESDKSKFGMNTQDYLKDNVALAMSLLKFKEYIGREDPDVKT

Test [1] deals with AfPGMC353∗ (Aspergillus fumigatus, UniProt Q4WY53, C131S/C242S/C364S). Briefly: G6PDH coupled assay for PGM, AfPGMC353∗ variant (C353 the sole cysteine). In kind it is biochemical. The settings on record: read-out: IC50 AfPGMC353; AfPGMC353∗ (all other cysteines mutated to serine) 5 nM, no preincubation.
The target in test [2] is AfPGM (Aspergillus fumigatus, UniProt Q4WY53). The settings on record: read-out: IC50 AfPGM; WT AfPGM 5 nM, no preincubation, 500 μM Glc-1P.

One may read the IC50 as the concentration that inhibits the measured activity by half. For `CCOC(=O)c1ccc(-n2sccc2=O)cc1`, the IC50 in test [1] was determined as 9.8 µM; in test [2], 2 µM. On to `O=c1ccsn1-c1ccccc1`, for which the IC50 came to 21 µM in test [1] and 20 µM in test [2]. Regarding `Cn1sccc1=O`, the IC50 in test [2] was > 400 µM. In the case of `O=c1ccsn1-c1cccc(C(F)(F)F)c1`, the IC50 in test [1] amounted to 10 µM; in test [2], 9 µM. For `COC(=O)c1ccc(-n2sccc2=O)cc1`, the figures for the IC50 in test [1] and in test [2] were 5.7 µM and 2 µM, respectively.

Turning to `O=c1ccsn1-c1ccc(F)c(Cl)c1`, the IC50 in test [1] stood at 8.8 µM; in test [2] it was 3.7 µM.
